# PubChem BioAssay AID1259414, Drosophila RNAi Screening Center – 2018
# Screen: 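Genome-wide screen for host control of endosymbiont load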 (primary screen)
# Cell system: Drosophila JW18 cells infected with Wolbachia
# Knock-down reagent: long dsRNA against Drosophila genes, 0.25 µg dsRNA per well of a 384-well plate
# Time to read-out: 5 days
# Conditions: cells persistently infected with Wolbachia before knock-down; no added drug
# Read-out: 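Automated imaging of bacterial rRNA staining divided by host cell count, reported as plate-normalised robust z-score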
# Direction: Wolbachia per cell robust z: higher = more Wolbachia per host cell than the plate typical
# Rule for the call: 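Active if absolute robust z reaches 1.5 in two or more of three replicates, leaving out multi- or no-target dsRNAs, genes unexpressed in JW18 and A1 wells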
# The screen tested about 24,000 reagents; below is a random part of those that have a named target and a result. Of all reagents, about 1,210 (5%) got an active call. 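Inactive calls also include excluded dsRNAs with several or no targets, genes unexpressed in JW18, and well A1, regardless of score.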 Entries without a mark were called inactive. The numbers tell different reagents against one gene apart. Names joined by + are all predicted targets of the reagent.
predicted target,reagent no.,"Wolbachia per cell robust z, rep 1","Wolbachia per cell robust z, rep 2","Wolbachia per cell robust z, rep 3"
CG11581,1,-4.12,0.0755,-0.0593
CG7044,1,-1.4,-1.42,-2.76
Ldsdh1 (Lipid droplet subset dehydrogenase 1),1,-3.09,0.272,-0.86
Ldsdh1 (Lipid droplet subset dehydrogenase 1),2,0.74,0.157,0.217
CNMa (CNMamide),1,0.439,-0.634,-1.03
cv-2 (crossveinless 2),1,-2.02,-0.689,0.879
cv-2 (crossveinless 2),2,-1.01,0.0372,-0.675
"AspRS-m (Aspartyl-tRNA synthetase, mitochondrial)",1,0.945,-4.93,0.934
fz2 (frizzled 2),1,0.727,1.53,-1.08
fz2 (frizzled 2),2,-0.00364,0.198,0.0894
Wnt10 (Wnt oncogene analog 10),1,0.774,0.55,-1.41
Wnt10 (Wnt oncogene analog 10),2,1.25,0.471,1.05
CG32459,1,-0.247,-3.05,-2.26
CG34427,1,-0.501,0.332,0.0953
CG30479,1,0.43,-0.0853,-1.54
CG30479,2,0.804,-0.455,-0.0922
Rat1 (Rat1 5'-3' exoribonuclease),1,-0.18,0.779,1.16
Cnep1r1 (CTD nuclear envelope phosphatase 1 regulatory subunit 1),1,0.971,1.51,1.11
Efhc1.1 (EF-hand domain containing 1.1),1,-0.551,-0.0277,0.342
ScpX,1,-6.54,-0.615,0.391
CG4646,1,-0.341,-0.179,-1.74
CG2767,1,0.232,-0.463,-0.453
CG2767,2,-0.684,-0.208,-0.233
CG15649,1,-0.827,0.216,-0.903
CG15649,2,-0.185,-1.3,-0.37
achi + vis,1,-0.501,-0.456,-0.757
knrl (knirps-like),1,1.33,0.248,0.771
knrl (knirps-like),2,-1.21,-1.52,-1.06
